Results taken from patent publication US10995358B2, “Rapid antibiotic susceptibility test using membrane fluorescence staining and spectral intensity ratio improved by flow cytometry dead to live population ratio” (POCARED Diagnostics LTD., priority 2017, dated 2021).

Test system: E. coli
Test: Flow cytometry SIR/SDL dead/live analysis of FM1-43 stained bacteria under Gentamycin exposure
Format: cell-based
Conditions: 120 minutes; for Mean FL1-H: 530 nm; for Mean FL3-H: 610 nm
Method: In this Example, E. coli bacteria samples were incubated with Gentamycin in series dilution from 0 to 32 μgr/ml for 120 minutes. Post incubation the samples were stained with the dye FM1-43 and immediately measured by flow cytometry analysis on light scatter analysis for gating the bacteria and with fluorescence filters: λ1=530/30 and λ2=616/16 nm to analyze the SIR. Moreover gating of the Dead and live bacteria were determined.
From such instant flow-cytometry analysis the SIR and SDL values are evaluated. While performing the same analysis over the whole antibiotic concentrations dilution series the SIR and SDL values were extracted to the concentration series, the data is summarized in Table 5. In Table 5, mean FL1-H and FL3-H is the average of the individual points in the bacteria gated population, i.e. of all measured bacteria. In other words, Fl-1 and FL-3 are merely the fluorescence intensity of each event (bacteria) per a certain fluorescence filter. By referring to FL-1 or FL-3 this means that the mean (average) values of all the events is calculated in the dot plot. FL-1 it is at 530 (±15) nm and FL-3 is at 610 (±10) nm. SIR, is the ratio of FL-3/FL-1. […] So, in order to obtain SIR all that is needed are the FL-3 and FL-1 mean values of the bacterial population in the dot plot. […] By using a predetermined gates, the number of dead and live bacteria can be counted, and then the ratio of dead to live can be calculated and multiplied by the SIR to obtain SDL. The gates are combination of FL-1 and FL-3 and predetermined by control live sample. Plotting SIR, SDL, and DL versus antibiotic concentration is represented in FIG. 15 as (labeled as “SIR”, “SDL”, and “DL”). In FIG. 15, SIR, SDL, and DL are all normalized to the maximum value in the series (column)/dataset and then to 100.
From the data, we can determine the MIC by approximating the MIC as a function of antimicrobial concentration to an error function (FIG. 16) of the following type;
The MIC is the value of the parameter c or a function of it. Specifically, the MIC gets the value of “c”. The value of “c” is the middle of the step in a regular step function of where the step function equals to zero when its values are normalized between −1 to 1.

## gentamicin
Gentamycin 0.25 microg/ml
  Mean FL1-H: 6,069.37
  Mean FL3-H: 7,420.25
Gentamycin 0.5 microg/ml
  Mean FL1-H: 5,756.56
  Mean FL3-H: 7,124.38
Gentamycin 1 microg/ml
  Mean FL1-H: 6,375.92
  Mean FL3-H: 9,161.63
Gentamycin 2 microg/ml
  Mean FL1-H: 7,064.36
  Mean FL3-H: 10,073.67
Gentamycin 4 microg/ml
  Mean FL1-H: 6,507.78
  Mean FL3-H: 11,180.52
Gentamycin 8 microg/ml
  Mean FL1-H: 6,140.02
  Mean FL3-H: 13,145.14
Gentamycin 16 microg/ml
  Mean FL1-H: 7,029.26
  Mean FL3-H: 16,724.90
Gentamycin 32 microg/ml
  Mean FL1-H: 5,949.04
  Mean FL3-H: 13,898.57
